Where only a bound is given, the exact number is not on record here.

Data set [1] deals with S. aureus ATCC 43300 MRSA. As to the kind of experiment: Selectivity index SI = IC50/MIC. It is filed as cell-based, Staphylococcus aureus. As to conditions: SI = IC50 (MRC-5)/MIC.
The subject of data set [2] is S. aureus MRSA clinical strains (NMI). As to the kind of experiment: Selectivity index SI = IC50/MIC. It counts as cell-based, Staphylococcus aureus. Particulars: SI = IC50 (MRC-5)/MIC, from lowest and highest MIC values.

As for `CC(=O)NC[C@H]1CN(c2ccc(N3CCOCC3)c(F)c2)C(=O)O1` [LIN, linezolid, reference compound], in data set [1], the “SI for S. aureus ATCC 43300 MRSA” value is on record as more than 200. Also, the “SI range for S. aureus MRSA clinical strains (NMI)” value in data set [2] is more than 400.

(Values after publication PMC11110727, “Exploiting thiol-functionalized benzosiloxaboroles for achieving diverse substitution patterns – synthesis, characterization and biological evaluation of promising antibacterial agents” (RSC Medicinal Chemistry, 2024).)
